Reference: article PMC10873877
The exact form of at least one protein or probe is not confirmed.

What was measured:
[1] = tested on: His-Tal6b/AvrXa27A (Xanthomonas oryzae pv. oryzae LN18); experiment: EMSA; conditions: pH and temperature not stated, recombinant protein, protein details: His (pET-30a), label: Cy5
His-PthXo1 = His-PthXo1 (UniProt B2SU53); experiment: EMSA; conditions: pH and temperature not stated, recombinant protein, protein details: His, label: Cy5

“AGCTCCCCCTACTGTACAC (double strand) [Xa13p-11]”: binds [1].
“ATCTCCCCCTACTGTACAC (double strand) [Xa13p-10]”: binds [1].
“GCATCTCCCCCTACTGTACACC (double strand) [Xa13p-9]”: binds [1].
“GTGCTATAAATAGAAGAAGAGACCCATAGAGAGC (double strand) [Xa27p]”: binds ([1]; reduced by unlabeled Xa27p).
“GTTAGATATGCATCTCCCCCTACTGTACACCACCAAAAGT (double strand) [Xa13p]”: binds (His-PthXo1); binds [1].
“GTTAGATATGCATCTCCCCCTTAGGTACACCACCAAAAGT (double strand) [Xa13p-5]”: binds [1].
